{
  "source": "paper PMC6628624",
  "about": "(Toxins, 2019)",
  "tested_on": "Caco-2 cells",
  "experiment": "Permeability study using Caco-2 cells",
  "details": "Caco-2, 1 and 2 h after exposure to 3 and 10 µmol/L CTVD; data not shown",
  "data": [
    {"compound": "COc1cc(=O)oc(/C=C/C=C/C=C/C(C)=C/[C@]2(C)O[C@H](C)[C@](C)(O)[C@H]2O)c1C", "note": "[CTVD, Citreoviridin]", "values": [
      {"measurement": "change in TEER (transepithelial electrical resistance) over time", "result": "no marked change"}
    ]}
  ]
}
